Results of unrelated studies side by side (data: NIAID ChemDB).

Shared fields: whole-cell or culture tests; species: Candida tropicalis

Blank or dashed fields: not listed here.

structure | conditions | measure | strain or isolate | method | result
O/N=C(/CCn1ccnc1)c1ccc(Cl)cc1 | - | MIC80 | - | agar diffusion | 0.5019 µg/mL
CCCCCSc1ccnc(C(N)=S)c1 | - | MIC | 156 | - | >500 µM
O/N=C(/CCn1ccnc1)c1ccccc1 | - | MIC80 | - | agar diffusion | 0.5807 µg/mL
CCC(C)n1ncn(-c2ccc(N3CCN(c4ccc(OC[C@H]5CO[C@](Cn6cncn6)(c6ccc(Cl)cc6Cl)O5)cc4)CC3)cc2)c1=O | - | MIC90 | 15 strains | - | 0.25 µg/mL
CCCCCCCCCCCCSc1ccnc(C(N)=S)c1 | - | MIC | 156 | - | >500 µM
C/C=C/[C@@H]1OC(=O)C=C[C@@H]1O | - | MIC50 | R2 (polyene-resistant) | - | 400 µg/mL
C=CCc1ccc(OC)c(OC)c1 | - | MIC90 | 105 | turbidity | 345 µg/mL
OC(Cn1cncn1)(Cn1cncn1)c1ccc(F)cc1F | - | MIC80 | - | agar diffusion | >1.63 µg/mL
Nc1ncccc1-c1cc(Cc2ccc(COc3ccccn3)cc2)no1 | - | MIC | 8663 | broth dilution | 0.015 µg/mL
CO[C@@H]1C(COC(=O)CCC(=O)O)=CC2C(=O)O[C@H]3C[C@@H](C/C=C(\C)C[C@@H](C)/C=C/C=C4\CO[C@H]1[C@@]42O)O[C@@]1(CC[C@H](C)[C@@H](C)O1)C3 | - | MFC | FA1572 | - | >0.5 µg/mL
Nc1scc2c1c(=O)oc1ccc3ccccc3c12 | - | MIC | ATCC 750 | broth dilution | 32 µg/mL
CC(C)CC(O)C(=O)O | - | EC50 | D 213 | broth dilution | 18000 µg/mL
Clc1ccc(C(Cn2ccnc2)OCc2csc3c(Cl)cccc23)c(Cl)c1 | 24 h | MIC90 | 65 isolates | absorbance | 4 µg/mL
CCSc1ccnc(C(N)=S)c1 | - | MIC | 156 | - | 500 µM
CO/N=C/C(C)(C)C(O)(Cn1cncn1)c1ccc(Cl)cc1 | - | MIC | 1525 | visual reading | 1 µg/mL
C[C@H]1[C@H](O)[C@@H](C)/C=C/C=C/C=C/C=C/C=C/C=C/C=C/[C@H](O[C@@H]2O[C@H](C)[C@@H](O)[C@H](N)[C@@H]2O)C[C@@H]2O[C@](O)(C[C@@H](O)C[C@@H](O)CC[C@H](O)[C@@H](O)C[C@@H](O)CC(=O)O[C@H]1C)C[C@H](O)[C@H]2C(=O)O | - | MFC | MTCC 1406 | broth dilution | 1 µg/mL
NC(=S)c1cc(SC2CCCCC2)ccn1 | - | MIC | 156 | - | >500 µM
CCC(C)CC(C)CCCCCCCCC(=O)N[C@H]1C[C@@H](O)[C@H](NCCN)NC(=O)[C@@H]2[C@@H](O)CCN2C(=O)[C@H]([C@H](O)CCN)NC(=O)[C@H]([C@H](O)[C@@H](O)c2ccc(O)cc2)NC(=O)[C@@H]2C[C@@H](O)CN2C(=O)[C@H]([C@@H](C)O)NC1=O | - | MIC | 8663 | broth dilution | 4 µg/mL
CC(C)(C)Sc1ccnc(C(N)=S)c1 | - | MIC | 156 | - | >500 µM
C[C@H]1N(C(=O)c2ccc(C(F)(F)F)cc2)CCO[C@@]1(Cn1cncn1)c1ccc(F)cc1F | - | MIC | Isolate 1 | - | >64 µg/mL
CCCCCOc1ccc(-c2cc(-c3ccc(C(=O)N[C@H]4C[C@@H](O)[C@@H](O)NC(=O)[C@@H]5[C@@H](O)[C@@H](C)CN5C(=O)[C@H]([C@H](O)CC(N)=O)NC(=O)[C@H]([C@H](O)[C@@H](O)c5ccc(O)c(OS(=O)(=O)O)c5)NC(=O)[C@@H]5C[C@@H](O)CN5C(=O)[C@H]([C@@H](C)O)NC4=O)cc3)no2)cc1 | - | EC50 | RC-501 | broth dilution | 0.016 µg/mL
CCCCCCSc1ccnc(C(N)=S)c1 | - | MIC | 156 | - | >500 µM
COC(=O)[C@H]1[C@@H]2C[C@@H](O[C@@H]3O[C@H](C)[C@@H](O)[C@H](N)[C@@H]3O)/C=C/C=C/C=C/C=C/C=C/C=C/C=C/[C@H](C)[C@@H](O)[C@H](C)[C@H](C)OC(=O)C[C@H](O)C[C@H](O)[C@@H](O)CC[C@H](O)C[C@H](O)C[C@](O)(C[C@@H]1O)O2 | - | MIC | Isolate 93-231 fluconazole-resistant | - | <0.25 µg/mL
OC(Cn1cncn1)(Cn1cncn1)c1ccc(F)cc1F | - | MIC | Clinical isolates | - | 0.811 µg/mL
CCC(C)CC(C)CCCCCCCCC(=O)N[C@H]1C[C@@H](O)[C@H](NCCN)NC(=O)[C@@H]2[C@@H](O)CCN2C(=O)[C@H]([C@H](O)CCN)NC(=O)[C@H]([C@H](O)[C@@H](O)c2ccc(O)cc2)NC(=O)[C@@H]2C[C@@H](O)CN2C(=O)[C@H]([C@@H](C)O)NC1=O | - | MIC | MY1124 | - | 0.25 µg/mL
CCC(C)CC(C)CCCCCCCCC(=O)N[C@H]1C[C@@H](O)[C@H](NCCN)NC(=O)[C@@H]2[C@@H](O)CCN2C(=O)[C@H]([C@H](O)CCN)NC(=O)[C@H]([C@H](O)[C@@H](O)c2ccc(O)cc2)NC(=O)[C@@H]2C[C@@H](O)CN2C(=O)[C@H]([C@@H](C)O)NC1=O | - | MIC50 | 20 isolates | - | 0.5 µg/mL
C[C@H]1[C@H](O)[C@@H](C)/C=C/C=C/C=C/C=C/C=C/C=C/C=C/[C@H](O[C@@H]2O[C@H](C)[C@@H](O)[C@H](N)[C@@H]2O)C[C@@H]2O[C@](O)(C[C@@H](O)C[C@@H](O)CC[C@H](O)[C@@H](O)C[C@@H](O)CC(=O)O[C@H]1C)C[C@H](O)[C@H]2C(=O)O | - | MIC100 | MTCC 184 | broth dilution | 2 µg/mL
COc1ccc(C(=O)O/N=C(\CCn2ccnc2)c2ccccc2)cc1 | - | MIC80 | - | agar diffusion | 0.3582 µg/mL
CCCCCCCCCCCCCCCCn1cc[n+](C)c1 | - | MIC | 102A | broth dilution | 0.014 µg/mL
Cc1ccc(/C=N/Nc2ccnc3cc(Cl)ccc23)cc1 | - | MFC | - | - | 80 µg/mL
COc1cc(O)c2c(c1)C(=O)c1c(cc3c(c1O)-c1c(cc(C)c(C(=O)NC(CO)C(=O)O)c1O)[C@H](OC1OC(C)C(N(C)C)C(OC4OCC(O)C(O)C4O)C1O)[C@H]3O)C2=O | - | MIC | IFO 10241 | - | 3.1 µg/mL
CC(C)(O)c1cn(-c2ccc(Cl)cc2)nn1 | - | MIC | URM 916 | broth dilution | 128 µg/mL
Nc1[nH]c(=O)ncc1F | - | MIC | - | broth dilution | 3.2 µg/mL
CCCCCCCCCCSc1ccnc(C(N)=S)c1 | - | MIC | 156 | - | >500 µM

A second listing of 2 rows from above:

{"structure": "CCC(C)CC(C)CCCCCCCCC(=O)N[C@H]1C[C@@H](O)[C@H](NCCN)NC(=O)[C@@H]2[C@@H](O)CCN2C(=O)[C@H]([C@H](O)CCN)NC(=O)[C@H]([C@H](O)[C@@H](O)c2ccc(O)cc2)NC(=O)[C@@H]2C[C@@H](O)CN2C(=O)[C@H]([C@@H](C)O)NC1=O", "measure": "MIC", "strain or isolate": "MY1124", "result": "0.25 µg/mL"}
{"structure": "CCC(C)n1ncn(-c2ccc(N3CCN(c4ccc(OC[C@H]5CO[C@](Cn6cncn6)(c6ccc(Cl)cc6Cl)O5)cc4)CC3)cc2)c1=O", "measure": "MIC90", "strain or isolate": "15 strains", "result": "0.25 µg/mL"}

Neighbouring rows are from separate reports. ECn: concentration that inhibits the pathogen or its effect by n%. A number after MIC or MFC names an inhibition level or a share of isolates.